Measured values taken from ChEMBL document CHEMBL1275243 (2010).

Experiments:
Bacillus anthracis [1] = assay: Antimicrobial activity against Bacillus anthracis A0188 assessed as change in fluorescence threshold cycle at 0.015 ug/ml after 4 hrs by real-time PCR viability assay relative to control
Bacillus anthracis [2] = assay: Antimicrobial activity against Bacillus anthracis A03768 assessed as change in fluorescence threshold cycle at 0.015 ug/ml after 4 hrs by real-time PCR viability assay relative to control
Bacillus anthracis [3] = assay: Antimicrobial activity against Bacillus anthracis A0462 assessed as change in fluorescence threshold cycle at. 03 ug/ml after 4 hrs by real-time PCR viability assay relative to control
Bacillus anthracis [4] = assay: Antimicrobial activity against Bacillus anthracis A0102 assessed as change in fluorescence threshold cycle at 64 ug/ml after 4 hrs by real-time PCR viability assay relative to control
Bacillus anthracis [5] = assay: Antimicrobial activity against Bacillus anthracis A0462 assessed as change in fluorescence threshold cycle at 64 ug/ml after 4 hrs by real-time PCR viability assay relative to control
Bacillus anthracis [6] = assay: Antimicrobial activity against Bacillus anthracis A0465 assessed as change in fluorescence threshold cycle at 64 ug/ml after 4 hrs by real-time PCR viability assay relative to control
Bacillus anthracis [7] = assay: Antimicrobial activity against Bacillus anthracis A0102 assessed as change in fluorescence threshold cycle at 4 ug/ml after 4 hrs by real-time PCR viability assay relative to control
Bacillus anthracis [8] = assay: Antimicrobial activity against Bacillus anthracis A0248 assessed as change in fluorescence threshold cycle at 64 ug/ml after 4 hrs by real-time PCR viability assay relative to control
Bacillus anthracis [9] = assay: Antimicrobial activity against Bacillus anthracis A0149 assessed as change in fluorescence threshold cycle at 32 ug/ml after 4 hrs by real-time PCR viability assay relative to control
Bacillus anthracis [10] = assay: Antimicrobial activity against Bacillus anthracis A0293 assessed as change in fluorescence threshold cycle at 64 ug/ml after 4 hrs by real-time PCR viability assay relative to control
Bacillus anthracis [11] = assay: Antimicrobial activity against Bacillus anthracis A03768 assessed as change in fluorescence threshold cycle at 32 ug/ml after 4 hrs by real-time PCR viability assay relative to control
Bacillus anthracis [12] = assay: Antimicrobial activity against Bacillus anthracis 240 assessed as change in fluorescence threshold cycle at 32 ug/ml after 4 hrs by real-time PCR viability assay relative to control

SMILES | deltaCT (Bacillus anthracis [1]) | deltaCT (Bacillus anthracis [2]) | deltaCT (Bacillus anthracis [3]) | deltaCT (Bacillus anthracis [4]) | deltaCT (Bacillus anthracis [5]) | deltaCT (Bacillus anthracis [6]) | deltaCT (Bacillus anthracis [7]) | deltaCT (Bacillus anthracis [8]) | deltaCT (Bacillus anthracis [9]) | deltaCT (Bacillus anthracis [10]) | deltaCT (Bacillus anthracis [11]) | deltaCT (Bacillus anthracis [12])
O=C(O)c1cn(C2CC2)c2cc(N3CCNCC3)c(F)cc2c1=O [CIPROFLOXACIN] | 8.62 | 8.82 | 8.21 | – | – | – | – | – | – | – | – | –
C[C@H]1c2cccc(O)c2C(=O)C2=C(O)[C@]3(O)C(=O)C(C(N)=O)=C(O)[C@@H](N(C)C)[C@@H]3[C@@H](O)[C@@H]21.O [DOXYCYCLINE] | – | – | – | 7 | 7.83 | 8.26 | 9.46 | 7.7 | 8.13 | 8.51 | 7.24 | 6.37
